# In patent publication US10017459B2, “β-substituted β-amino acids and analogs as chemotherapeutic agents and uses thereof” (Quadriga Biosciences, Inc., priority 2015, dated 2018):
# Assays:
# [1] = tested on: LLCPK cells conditionally expressing hLAT1; assay: LAT1-specific in vitro cytotoxicity, modified clonigenic assay; conditions: 3 μM, 30 min
# [2] = tested on: L363; assay: In vitro cytotoxicity, L363; format: cell-based; conditions: read-out: IC50 (in vitro toxicity); L363, Multiple Myeloma; 30 min treatment, 72 hours growth
# [3] = tested on: 42MGBA; assay: In vitro cytotoxicity, 42MGBA; format: cell-based; conditions: read-out: IC50 (in vitro toxicity), Glioblastoma, 30 min treatment, 72 hours growth
# [4] = tested on: G55; assay: In vitro cytotoxicity, G55; format: cell-based; conditions: read-out: IC50 (in vitro toxicity); G55, Glioblastoma; 30 min treatment, 72 hours growth
# [5] = tested on: LN229; assay: In vitro cytotoxicity, LN229; format: cell-based; conditions: read-out: IC50 (in vitro toxicity); LN229, Glioblastoma; 30 min treatment, 72 hours growth
# [6] = tested on: U251; assay: In vitro cytotoxicity, U251; format: cell-based; conditions: read-out: IC50 (in vitro toxicity); U251, Glioblastoma; 30 min treatment, 72 hours growth, CellTiter-Glo
# [7] = tested on: PC3; assay: In vitro cytotoxicity, PC3; format: cell-based; conditions: read-out: IC50 (in vitro toxicity); PC3, Prostate Cancer; 30 min treatment, 72 hours growth
# [8] = tested on: MDA-MB-231; assay: In vitro cytotoxicity, MDA-MB-231; format: cell-based; conditions: read-out: IC50 (in vitro toxicity); MDA-MB-231, Breast Cancer; 30 min treatment, 72 hours growth
# [9] = tested on: Human prostate cancer PC3 cells; assay: Prostate cancer xenograft study, IV dosing; conditions: 2.5 mg/kg or 10 mg/kg IV once a week for 4 weeks
# [10] = tested on: RPMI8266; assay: In vitro cytotoxicity, RPMI8266; format: cell-based; conditions: read-out: IC50 (in vitro toxicity); RPMI8266, Multiple Myeloma; 30 min treatment, 72 hours growth
# [11] = tested on: HS5; assay: In vitro cytotoxicity, HS5; format: cell-based; conditions: read-out: IC50 (in vitro toxicity); HS5, Multiple Myeloma; 30 min treatment, 72 hours growth
Structure (SMILES),percent surviving cells in cells expressing LAT1 versus cells not expressing LAT1 (in words) [1],IC50 [2] [µM],IC50 [3] [µM],IC50 [4] [µM],IC50 [5] [µM],IC50 [6] [µM],IC50 [7] [µM],IC50 [8] [µM],body weight [9],myelosuppression [9],tumor growth suppression ([9]; nude mice),IC50 [10] [µM],IC50 [11] [µM]
Cc1cc(N(CCCl)CCCl)ccc1C(N)CC(=O)O (stereo not shown),about the same,–,–,–,–,–,–,–,–,–,–,–,–
N[C@H](CC(=O)O)Cc1ccc(N(CCCl)CCCl)cc1,–,> 100,< 100,< 100,< 100,< 100,< 100,–,–,–,–,–,–
N[C@H](CC(=O)O)Cc1ccccc1N(CCCl)CCCl,–,> 100,< 100,< 100,< 100,< 100,< 100,< 100,maintained weight,not dectected,dose-dependent tumor growth suppression,> 100,> 100
